Measured values reported in article PMC10184898.

Biological target: MoCrn1 (MST) (Magnaporthe oryzae)
Assay: MST
Conditions: natural protein

Substance His-MoRgs7 has a Kd of 1350 nM.
